## Primary screen of a compound library

Data taken from ChEMBL document CHEMBL3988442, “University of Dundee, Small-Polar-MMV Screening Library” (2021).

A: 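Whole-cell growth test on Mycobacterium tuberculosis, read after 3 days in glucose-containing 7H9 medium; the read-out is not stated. Compounds at 500 µM. Higher reads as more growth inhibition (inferred: compounds with an IC50 in retests scored well above the rest). About 18,000 compounds were tested under these conditions; 7.9% (about 1,400) showed 50% or more at least once.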
B: 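Growth of Mycobacterium tuberculosis over 4 days (cholesterol / DPPC medium with tyloxapol); the read-out is not stated. Tested at 500 µM. Direction is inferred from retests: higher values go with more growth inhibition. About 18,000 compounds were tested under these conditions; 5% (about 900) showed 50% or more at least once.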

Results are given as percent effect. The record does not define 0% and 100%; most values in the screen are far below 50% and negative numbers occur (in some assays of this library far below -100). The entries come from a sample that favours strong results. A dash means the value is not listed here; it may have been measured.

| # | Compound | A | B |
|---|---|---|---|
| 1 | `Cc1cccc(C(=O)NC2CC(N)C2)n1` (stereo unspecified) | 7.328 | - |
| 2 | `COCCN(CCN(C)C)C(=O)Nc1ccncc1` | -2.214 | - |
| 3 | `COC(=O)Cc1cc(O)n[nH]1` | - | -15.77 |
| 4 | `Cc1nnc(SCCSC(C)(C)C)n1CC(N)=O` | 15.94 | - |
| 5 | `CN(C)CCSCc1noc(C2CCOCC2)n1` | 4.133 | - |
| 6 | `Cc1cc(NC(=O)Cn2cnc(C#N)n2)no1` | 15.22 | - |
| 7 | `CCOC(=O)C1CCCN(c2nccnc2C#N)C1` (stereo unspecified) | 42.93 | 21.15 |
| 8 | `CC(C)c1cc(C(=O)N[C@@H]2CCOC[C@H]2O)cs1` | 25.31 | 62.76 |
| 9 | `Cc1oc2ncn(C)c(=O)c2c1C(=O)N(C)C` | -0.453 | - |
| 10 | `O=S1(=O)NCCN1c1ccccc1` | 10.72 | - |
| 11 | `N#CCOC(=O)c1ccc2c(c1)OCCCO2` | - | 51.62 |
| 12 | `COc1cccc(Nc2ccc(N)nc2)c1` | 73.49 | 78.88 |
| 13 | `CC(C)(C)C(=O)Nc1nccs1` | 16.73 | - |
| 14 | `CCOc1ccc(S(=O)(=O)NCCCO)cc1` | 11.68 | 3.48 |
| 15 | `CN(C)S(=O)(=O)c1ccc(N)nc1` | 1.241 | - |
| 16 | `NC(=O)NCC(=O)NCC1COc2ccccc2C1` (stereo unspecified) | - | -13.54 |
| 17 | `Cc1ocnc1C(=O)Nc1cncc(Br)c1O` | 5.655 | - |
| 18 | `CC(C)(C)OC(=O)NCC(C)(O)c1ccco1` (stereo unspecified) | 24.42 | - |
| 19 | `Cc1ccc(CNC(=O)NCCO)cc1` | 16.42 | - |
| 20 | `N[C@@H]1CC[C@@H](NC(=O)c2cc3sccc3[nH]2)C1` | 53.4 | 26.3 |
| 21 | `CN(C)[C@@H]1CN(C(=O)c2ccco2)C[C@H]1CO` | - | -3.75 |
| 22 | `NC(=O)CCN1C(=O)c2ccccc2S1(=O)=O` | -3.502 | -19.36 |
| 23 | `CCC(=O)c1ccc(C(=O)OC)cc1` | 5.202 | - |
| 24 | `Cc1ccc(NC(=O)CCNS(C)(=O)=O)c(F)c1` | - | -0.5046 |
| 25 | `CN(C)c1ncccc1CNC(=O)NCC1CCCO1` (stereo unspecified) | 0.5596 | - |
| 26 | `CC(C(=O)Nc1sccc1C(N)=O)N1CCCCC1` (stereo unspecified) | 19.47 | -5.458 |
| 27 | `NCc1ccc2c(c1)CCS2(=O)=O` | - | 1.334 |
| 28 | `Cn1cncc1CCNC(=O)c1cc(Cl)cn1C` | - | 6.431 |
| 29 | `COc1cc(CN)cc(C)n1` | - | 12.9 |
| 30 | `COC(=O)N1CCC(NC2CCOCC2)C1` (stereo unspecified) | 1.385 | - |
| 31 | `O=C1NCCCC12CCN(C/C=C/c1ccccc1)C2` (stereo unspecified) | 41.02 | 10.66 |
| 32 | `CCOC(=O)c1cccnc1C` | 2.936 | 0.877 |
| 33 | `Cc1cc(C)c(C#N)c(SCC(=O)N2CCCC2)n1` | 20.73 | - |
| 34 | `CC1=CCN(Cc2ccc(N(C)C)nc2)CC1` | -66.43 | - |
| 35 | `CS(=O)(=O)CCN1CCN(c2ccc(O)cc2)CC1` | 12.44 | - |
| 36 | `CCNC(=O)N1CCCN(Cc2ccsc2)CC1` | 21.75 | - |
| 37 | `CC(C)(N)c1nnc[nH]1` | 6.183 | - |
| 38 | `O=C1OCCN1C1CCNC1` (stereo unspecified) | - | -9.359 |
| 39 | `NC1CNCCNC1` | - | 3.655 |
| 40 | `NC(c1cncc(Br)c1)C1CC1` (stereo unspecified) | 50.37 | - |
| 41 | `N#Cc1ncn(CCOC(=O)Nc2ccccc2)n1` | 19.19 | - |
| 42 | `Cc1ccc(S(=O)(=O)N2CCC[C@@H](N)C2)c(C)c1` | 76.47 | 57.67 |
| 43 | `CC(CN)c1cccc(F)c1` (stereo unspecified) | 8.821 | - |
| 44 | `NCCCc1ccc(O)cc1` | 14.83 | - |
| 45 | `COc1cc(Cl)ccc1CN` | 63.88 | - |
| 46 | `Cc1cc(CN(C)c2ncccc2F)no1` | 4.786 | - |
| 47 | `CCn1cc(C(=O)Nc2cc(C)on2)cn1` | 20.65 | - |
| 48 | `COC1CCN(C(=O)Nc2ccccc2)CC1` | 25.41 | - |
| 49 | `CNCC(O)CN1CCc2ccccc2CC1` (stereo unspecified) | 87.09 | 85.92 |
| 50 | `CCOc1ccccc1CSc1nnc(O)[nH]1` | 20.29 | - |
| 51 | `CNC(=O)CN(C)Cc1nnsc1Cl` | 2.673 | - |
| 52 | `CC(C)(O)CN1CCC(N)CC1` | -8.296 | - |
| 53 | `NCC1CCCN(c2ncccn2)C1` (stereo unspecified) | 62.91 | - |
| 54 | `CC(=O)NCC(=O)Nc1ccc2cccc(Cl)c2n1` | - | -9.39 |

The first 5 entries again:

{"compound": "Cc1cccc(C(=O)NC2CC(N)C2)n1", "stereo": "stereo unspecified", "A": 7.328}
{"compound": "COCCN(CCN(C)C)C(=O)Nc1ccncc1", "A": -2.214}
{"compound": "COC(=O)Cc1cc(O)n[nH]1", "B": -15.77}
{"compound": "Cc1nnc(SCCSC(C)(C)C)n1CC(N)=O", "A": 15.94}
{"compound": "CN(C)CCSCc1noc(C2CCOCC2)n1", "A": 4.133}